Compound potency records, mixed from different reports. Data source: NIAID ChemDB in PubChem.

Common to all: tests in culture

MIC50, MIC90 and the like: level of inhibition, or share of isolates inhibited.

smiles,agent,strain or isolate,read by,setting,read-out,tested at,value
Cc1cc2ncn(CC(O)COc3cc(OCC(O)Cn4cnc5cc(C)c(C)cc54)c4c(C)cc(=O)oc4c3)c2cc1C,Candida mycoderma,,,,MIC,,32 µg/mL
CC(C)(O)c1cn(-c2ccc([N+](=O)[O-])cc2)nn1,Candida parapsilosis,URM 4818,broth dilution,,inhibition,2048 µg/mL,0%
Cc1nc2c(s1)C(=O)C(Nc1ccc(F)cc1)=C(Cl)C2=O,Candida utilis,KCCM 50662,broth dilution,,MIC,,25 µg/mL
O=c1[nH]c(-c2cc3ccccc3oc2=O)nc2c1C(c1ccc(O)cc1)c1ccc3ccccc3c1O2,Candida rugosa,,agar diffusion / agar,,zone,100 µg/mL,11 mm
O=c1c2cc(O)ccc2oc2cccc(O)c12,Candida spp.,,broth dilution,,MIC100,,>64 µg/mL
Cc1cc(=O)oc2cc(OCC(O)Cn3cnc4ccccc43)cc(OCC(O)Cn3cnc4ccccc43)c12,Candida mycoderma,,,,MIC,,64 µg/mL
CCCCCCCCCCn1cc[n+](COCCOC[n+]2ccn(CCCCCCCCCC)c2)c1,Candida krusei,ATCC 6258,agar diffusion,,MIC100,,2 µM
Cc1nc2c(s1)C(=O)C(Nc1cccc(F)c1)=C(Cl)C2=O,Candida utilis,KCCM 50662,broth dilution,,MIC,,6.3 µg/mL
C=CCc1ccc(OC)c(OC)c1,Candida tropicalis,2442,turbidity,,MIC90,,340 µg/mL
CC(C)(O)c1cn(-c2ccc3ccccc3c2)nn1,Candida parapsilosis,ATCC 22019,broth dilution,,inhibition,2048 µg/mL,0%
Nc1scc2c1c(=O)oc1ccc3ccccc3c12,Candida guilliermondii,,broth dilution,,MIC,,128 µg/mL
Clc1ccc(C(Cn2ccnc2)OCc2csc3c(Cl)cccc23)c(Cl)c1,Candida tropicalis,65 isolates,absorbance,48 h,MIC50,,1 µg/mL
CCC(C)CC(C)CCCCCCCCC(=O)N[C@H]1C[C@@H](O)[C@H](NCCN)NC(=O)[C@@H]2[C@@H](O)CCN2C(=O)[C@H]([C@H](O)CCN)NC(=O)[C@H]([C@H](O)[C@@H](O)c2ccc(O)cc2)NC(=O)[C@@H]2C[C@@H](O)CN2C(=O)[C@H]([C@@H](C)O)NC1=O,Candida tropicalis,8685,broth dilution,,MIC,,4 µg/mL
C[C@H]1[C@H](O)[C@@H](C)/C=C/C=C/C=C/C=C/C=C/C=C/C=C/[C@H](O[C@@H]2O[C@H](C)[C@@H](O)[C@H](N)[C@@H]2O)C[C@@H]2O[C@](O)(C[C@@H](O)C[C@@H](O)CC[C@H](O)[C@@H](O)C[C@@H](O)CC(=O)O[C@H]1C)C[C@H](O)[C@H]2C(=O)O,Candida rugosa,NCIM 3467,,,zone,50 µg/mL,21 mm
CC[C@@H]([C@H](C)O)n1ncn(-c2ccc(N3CCN(c4ccc(OC[C@@H]5CO[C@@](Cn6cncn6)(c6ccc(F)cc6F)C5)cc4)CC3)cc2)c1=O,Candida tropicalis,8684,broth dilution,,MIC,,0.03 µg/mL
COc1cc2oc3cc(O)cc(O)c3c(=O)c2c2c1OC(C)(C)C=C2,Candida spp.,,broth dilution,,MIC100,,>64 µg/mL
CCCCCCCCCCn1cc[n+](COCCCCCOC[n+]2ccn(CCCCCCCCCC)c2)c1,Candida krusei,ATCC 6258,agar diffusion,,MIC100,,65 µM
Cc1ccc(C2c3ccc4ccccc4c3Oc3nc(-c4cc5ccccc5oc4=O)[nH]c(=O)c32)cc1,Candida rugosa,,agar diffusion / agar,,zone,150 µg/mL,16 mm
OC(Cn1cncn1)(Cn1cncn1)c1ccc(F)cc1F,Candida utilis,,agar,,MIC,,25 µg/mL
CC(=O)c1ccc(B(O)O)cc1,Candida tenuis,,turbidity,,MIC,,7.8 µg/mL
CC(C)CC(O)C(=O)O,Candida dubliniensis,EO 323,broth dilution / visual reading,,MFC100,,72000 µg/mL
COc1ccc(NC2=C(Cl)C(=O)c3nc(C)sc3C2=O)cc1,Candida utilis,KCCM 50662,broth dilution,,MIC,,6.3 µg/mL
OB(O)c1c(F)cc(F)cc1F,Candida tenuis,,turbidity,,MFC,,500 µg/mL
CCC(C)CC(C)CCCCCCCCC(=O)N[C@H]1C[C@@H](O)[C@H](NCCN)NC(=O)[C@@H]2[C@@H](O)CCN2C(=O)[C@H]([C@H](O)CCN)NC(=O)[C@H]([C@H](O)[C@@H](O)c2ccc(O)cc2)NC(=O)[C@@H]2C[C@@H](O)CN2C(=O)[C@H]([C@@H](C)O)NC1=O,Candida lusitaniae,UTHSC 11-586,broth dilution,,MIC,,2 µg/mL
N=C(N)c1ccc2nc(-c3ccc(-c4nc5ccc(C(=N)N)cc5[nH]4)[nH]3)[nH]c2c1,Candida albicans,Isolate 1866,,,MFC,,12.5 µg/mL
OB1OC(N2CCCCC2)c2ccccc21,Candida tenuis,,turbidity,,MIC,,7.8 µg/mL
CC(=O)OC[C@H]1O[C@@H](O[C@@H]2[C@@H](N=[N+]=[N-])[C@H](O)[C@H](O)[C@H]3OC(C)(C)O[C@H]32)[C@H](OC(C)=O)[C@@H](OC(C)=O)[C@H]1OC(C)=O,Candida tropicalis,C 131,broth dilution / turbidity,,inhibition,62.5 µg/mL,17.39%
OB1OC(N2CCOCC2)c2ccccc21,Candida tenuis,,turbidity,,MIC,,15.6 µg/mL
CC(C)CC(=O)C(=O)O,Candida dubliniensis,EO 323,broth dilution,,MFC100,,>72000 µg/mL
COc1ccc(C2c3ccc4ccccc4c3Oc3nc(-c4cc5ccccc5oc4=O)[nH]c(=O)c32)cc1OC,Candida rugosa,,agar diffusion / agar,,zone,150 µg/mL,22 mm
CCCCCCCCCn1cc[n+](COCCCCOC[n+]2ccn(CCCCCCCCC)c2)c1,Candida krusei,ATCC 6258,agar diffusion,,MIC100,,9 µM
Cc1ccc(-n2cc(C(C)(C)O)nn2)cc1C,Candida parapsilosis,URM 3621,broth dilution,,inhibition,2048 µg/mL,0%
Cc1nc2c(s1)C(=O)C(Nc1ccc(I)cc1)=C(Cl)C2=O,Candida utilis,KCCM 50662,broth dilution,,MIC,,25 µg/mL
CCOc1ccc2nc3cc(N=C4NC(=O)/C(=C\C=C\c5ccc([N+](=O)[O-])o5)S4)ccc3c(N)c2c1,Candida kefyr,ATCC 8614,broth dilution,,MFC,,1000 µg/mL
C[C@H]1[C@H](O)[C@@H](C)/C=C/C=C/C=C/C=C/C=C/C=C/C=C/[C@H](O[C@@H]2O[C@H](C)[C@@H](O)[C@H](N)[C@@H]2O)C[C@@H]2O[C@](O)(C[C@@H](O)C[C@@H](O)CC[C@H](O)[C@@H](O)C[C@@H](O)CC(=O)O[C@H]1C)C[C@H](O)[C@H]2C(=O)O,Candida rugosa,,agar diffusion / agar,,zone,100 µg/mL,22 mm
CC(C)(O)c1cn(-c2cccc3ccccc23)nn1,Candida albicans,URM 4387,broth dilution,,inhibition,2048 µg/mL,0%
CCCCCCCn1cc[n+](COCCCCCCOC[n+]2ccn(CCCCCCC)c2)c1,Candida krusei,ATCC 6258,agar diffusion,,MIC100,,9 µM
O=c1[nH]c(-c2cc3ccccc3oc2=O)nc2c1C(c1ccccc1Cl)c1ccc3ccccc3c1O2,Candida rugosa,,agar diffusion / agar,,zone,150 µg/mL,15 mm

Rows are shuffled and stem from different studies. Zones are inhibition diameters on agar. An empty or dashed field is not shown. Inhibition is in % at the dose shown (toxicity tests: loss of growth or viability).